From PMC5615192 (mBio, 2017) come the findings set out here.

One assay addresses MAb A12A3 [mouse]. The experiment in a line: indirect ELISA. On the technique in general: In an ELISA, binding on a coated surface is turned into a signal by an enzyme label.
A further assay deals with HPV58 L1 VLP (human papillomavirus type 58, UniProt P26535). The experiment in a line: cell-based or functional assay.
In the next assay the target is T1, HPV59 L1 VLP (human papillomavirus type 59).
T1 chain: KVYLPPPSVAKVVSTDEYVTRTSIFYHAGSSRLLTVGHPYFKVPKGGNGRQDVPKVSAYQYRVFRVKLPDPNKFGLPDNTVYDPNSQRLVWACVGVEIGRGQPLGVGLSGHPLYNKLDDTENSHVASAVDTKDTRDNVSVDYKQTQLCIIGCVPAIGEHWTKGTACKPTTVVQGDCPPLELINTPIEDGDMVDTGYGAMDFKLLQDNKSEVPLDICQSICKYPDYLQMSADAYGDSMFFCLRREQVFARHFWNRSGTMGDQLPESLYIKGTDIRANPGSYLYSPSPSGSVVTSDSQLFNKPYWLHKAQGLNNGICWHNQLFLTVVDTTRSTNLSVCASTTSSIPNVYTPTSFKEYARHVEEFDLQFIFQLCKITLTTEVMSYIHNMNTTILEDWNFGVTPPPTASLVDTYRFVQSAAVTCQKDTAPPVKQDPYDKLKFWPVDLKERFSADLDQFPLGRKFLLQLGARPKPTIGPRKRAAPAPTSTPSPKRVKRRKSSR
The experiment in a line: cell-based or functional assay.

For another assay, the target named is T2, HPV59 L1 pentamer (human papillomavirus type 59).
T2 construct: also called HPV59p; HPV59 pentamer
T2 chain: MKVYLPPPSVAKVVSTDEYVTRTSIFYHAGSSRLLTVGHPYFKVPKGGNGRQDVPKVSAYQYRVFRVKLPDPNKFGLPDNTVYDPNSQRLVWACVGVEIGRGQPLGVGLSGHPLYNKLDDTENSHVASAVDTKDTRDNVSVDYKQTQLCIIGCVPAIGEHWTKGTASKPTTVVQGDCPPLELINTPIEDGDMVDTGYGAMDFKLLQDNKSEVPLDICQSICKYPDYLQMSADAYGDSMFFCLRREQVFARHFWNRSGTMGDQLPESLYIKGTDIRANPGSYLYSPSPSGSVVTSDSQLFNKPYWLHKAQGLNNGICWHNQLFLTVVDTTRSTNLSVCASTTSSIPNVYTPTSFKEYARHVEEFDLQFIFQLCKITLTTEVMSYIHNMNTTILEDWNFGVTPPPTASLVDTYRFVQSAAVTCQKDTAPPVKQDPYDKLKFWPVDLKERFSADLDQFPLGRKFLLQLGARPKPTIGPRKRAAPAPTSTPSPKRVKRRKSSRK
The assay is described as follows: crystal structure. The settings on record: both partners purified.

B1: HPV58 L1 VLP mutant S168A [human papillomavirus type 58] / MAb A12A3 [mouse] (protein)
parent chain 1: EVQLQQSGAELVRPGALVKLSCKASGFNIKDYYMHWVKQRPEQGLEWIGWIDPENGKTIYDPRFRGKASITADTSSNTAYLQLSSLTSEDAAVYYCATSNYRYDRSFDYWGQGTTLTVSAKTTPPSVYPLAPGCGDTTGSSVTSGCLVKGYFPEPVTVTWNSGSLSSSVHTFPALLQSGLYTMSSSVTVPSSTWPSQTVTCSVAHPASSTTVDKKL
parent chain 2: DIQMTQSPSSLFASLGGKVTITCKASQDINKYIAWFQHKPGKGPRLLIHYTFTLQPGIPSRFSGSGSGRDYSFSISNLEPEDIATYYCLQYHNLYTFGGGTKLEIKRADAAPTVSIFPPSSEQLTSGGASVVCFLNNFYPKDINVKWKIDGSERQNGVLNSWTDQDSKDSTYSMSSTLTLTKDEYERHNSYTCEATHKTSTSPIVKSFNRNEC
parent chain 3: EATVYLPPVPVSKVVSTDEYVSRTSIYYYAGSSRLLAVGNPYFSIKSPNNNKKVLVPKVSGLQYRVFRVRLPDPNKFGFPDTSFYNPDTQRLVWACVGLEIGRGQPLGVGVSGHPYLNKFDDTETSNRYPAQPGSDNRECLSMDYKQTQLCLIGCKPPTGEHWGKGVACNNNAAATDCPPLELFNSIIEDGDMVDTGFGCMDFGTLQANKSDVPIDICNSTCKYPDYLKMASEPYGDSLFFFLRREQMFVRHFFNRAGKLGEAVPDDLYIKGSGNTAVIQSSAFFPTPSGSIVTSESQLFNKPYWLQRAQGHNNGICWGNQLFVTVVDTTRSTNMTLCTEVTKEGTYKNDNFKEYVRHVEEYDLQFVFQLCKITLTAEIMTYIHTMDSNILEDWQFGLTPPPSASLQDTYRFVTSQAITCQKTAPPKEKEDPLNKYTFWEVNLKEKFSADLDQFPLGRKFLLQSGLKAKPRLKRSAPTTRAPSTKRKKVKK
Take B1: the EC50 – broadly, the concentration giving half of the maximal effect – with MAb A12A3 [mouse] was found to be 0.0099 µg/mL.

B2: HPV58 L1 VLP mutant D154A [human papillomavirus type 58] / MAb A12A3 [mouse] (protein)
parent chain 1: B1 parent chain 1
parent chain 2: B1 parent chain 2
parent chain 3: B1 parent chain 3
Molecule B2 returned an EC50 in the assay with MAb A12A3 [mouse] of 0.0237 µg/mL.

B3: HPV58 L1 VLP mutant N308A [human papillomavirus type 58] / MAb A12A3 [mouse] (protein)
parent chain 1: B1 parent chain 1
parent chain 2: B1 parent chain 2
parent chain 3: B1 parent chain 3
B3 came in with an EC50 in the assay with MAb A12A3 [mouse] of 0.0194 µg/mL.

B4: HPV58 L1 VLP mutant N170A [human papillomavirus type 58] / MAb A12A3 [mouse] (protein)
parent chain 1: B1 parent chain 1
parent chain 2: B1 parent chain 2
parent chain 3: B1 parent chain 3
The molecule B4 returned an EC50 with MAb A12A3 [mouse] of 0.0109 µg/mL.

B5: HPV58 L1 VLP mutant Q165A [human papillomavirus type 58] / MAb A12A3 [mouse] (protein)
parent chain 1: B1 parent chain 1
parent chain 2: B1 parent chain 2
parent chain 3: B1 parent chain 3
In turn, B5 came in with an EC50 with MAb A12A3 [mouse] of 0.0149 µg/mL.

B6: MAb A12A3 (antibody, V domains shown)
VH: EVQLQQSGAELVRPGALVKLSCKASGFNIKDYYMHWVKQRPEQGLEWIGWIDPENGKTIYDPRFRGKASITADTSSNTAYLQLSSLTSEDAAVYYCATSNYRYDRSFDYWGQGTTLTVSA
VL: DIQMTQSPSSLFASLGGKVTITCKASQDINKYIAWFQHKPGKGPRLLIHYTFTLQPGIPSRFSGSGSGRDYSFSISNLEPEDIATYYCLQYHNLYTFGGGTKLEIK
With B6, in the assay with HPV58 L1 VLP, the “IC50 of neutralisation of HPV58 pseudovirus (L1/L2 PsV, 293FT cells, GFP by flow cytometry)” value came out at 0.0017 µg/mL.

B7: A12A3 Fab (Fab, V domains shown)
VH: B6 VH
VL: B6 VL
notes: also called Fab fragment of A12A3; source: papain digestion of MAb A12A3, purified with DEAE-5PW exchange
B7: the “IC50 of neutralisation of HPV58 pseudovirus (L1/L2 PsV, 293FT cells, GFP by flow cytometry)” value with HPV58 L1 VLP stood at 0.0638 µg/mL.

B8: MAb 28F10 (antibody, V domains shown)
VH: DVKLVESGGGLVKPGGSLKLSCAASGFPFSDYTMSWIRQTPEKRLEWVASISSGGTYTYYPDTVKGRFTISRDNAKNTLYLQMSSLKSEDTAMFYCTRASPYYDYDEGYMDYWGQGTSVTVSS
VL: DVVMTQTPLSLPVSLGDQASISCRSSQSLVHSNGNTYLHWYLQKSGQSPKLLIYKVSNRFSGVPDRFSGSGSGTDFTLKISRVEAEDLGVYFCSQSTHVPFTFGAGTKLELK
On to B8, for which, in the assay with HPV59 L1 VLP, the “IC50 of neutralisation of HPV59 WT PsV (experiment of Fig. 7E)” value stood at 0.0149 µg/mL and the “IC50 of neutralisation of HPV59 pseudovirus (L1/L2 PsV, 293FT cells, GFP by flow cytometry)” value was 0.0143 µg/mL.

B9: 28F10 Fab (Fab, V domains shown)
VH: B8 VH
VL: B8 VL
notes: also called Fab fragment of 28F10; source: papain digestion of MAb 28F10, purified with DEAE-5PW exchange
Take B9: the stoichiometry N – broadly, a count of units in the complex or per binding partner – in the assay with HPV59 L1 pentamer was determined as 5 Fab per pentamer. Further, the “IC50 of neutralisation of HPV59 pseudovirus (L1/L2 PsV, 293FT cells, GFP by flow cytometry)” value with HPV59 L1 VLP amounted to 0.739 µg/mL.
